## Sequence variants of PSTVd loop 6 after infection

Reference: Wu et al. 2024, doi:10.1371/journal.ppat.1012142.

Region: loop 6 of PSTVd (intermediate strain), upper and lower strand joined, each 5' to 3', the first 5 letters being the upper strand, closing pairs included. Wild type: UGACCGCGAG. Varied positions (N): UNNNCGNNNG.

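Three N. benthamiana plants were inoculated with the whole mutant pool. Progeny were sequenced from the inoculated region (day 5), the margin of the inoculated leaf (day 10) and systemic leaves (day 12).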

Numbers give reads per thousand; 0 = not seen among the reads, higher = more abundant. Each site shows the three plants. "Pool" is the share in the plasmid pool used as inoculum, on the same scale. The inoculated region was read from the minus strand, the other sites from the plus strand. IR is the inoculated region, LM the leaf margin, Sys the systemic leaves. For reference, wild type rose from 20.7 per thousand in the pool to 195, 198, 203 (inoculated region), 629, 591, 734 (leaf margin) and 942, 870, 868 (systemic leaves).

| sequence | pool | IR | LM | Sys |
|---|---|---|---|---|
| UGUCCGGUCG | 0.261 | 0.174 / 0.0180 / 0.0369 | 0 / 0 / 0 | 0 / 0 / 0 |
| UGUCCGGUGG | 0.209 | 0.226 / 0.0719 / 0.0738 | 0 / 0.0252 / 0 | 0 / 0 / 0 |
| UGUCCGGUUG | 0.170 | 0.156 / 0.0180 / 0.0369 | 0 / 0 / 0 | 0 / 0 / 0 |
| UGUCCGUAAG | 0.144 | 0.608 / 0.808 / 0.498 | 0.193 / 0.151 / 0.139 | 0 / 0 / 0 |
| UGUCCGUACG | 0.353 | 0.139 / 0.126 / 0.0738 | 0 / 0 / 0 | 0 / 0 / 0 |
| UGUCCGUAGG | 0.327 | 0.0695 / 0.216 / 0.111 | 0 / 0 / 0 | 0 / 0 / 0 |
| UGUCCGUAUG | 0.327 | 0.0521 / 0.0719 / 0.0738 | 0.221 / 0 / 0.0232 | 0 / 0 / 0 |
| UGUCCGUCAG | 0.248 | 0.122 / 0.108 / 0.0553 | 0 / 0 / 0.0232 | 0 / 0 / 0 |
| UGUCCGUCCG | 0.248 | 0.156 / 0.108 / 0.0553 | 0 / 0 / 0.0232 | 0 / 0 / 0 |
| UGUCCGUCGG | 0.340 | 0.139 / 0.126 / 0.0922 | 0 / 0 / 0.0232 | 0 / 0 / 0 |
| UGUCCGUCUG | 0.235 | 0.0695 / 0.0539 / 0.0553 | 0 / 0 / 0 | 0 / 0 / 0 |
| UGUCCGUGAG | 0.327 | 0.695 / 0.611 / 0.553 | 0.0828 / 0.0504 / 0.0232 | 0 / 0 / 0 |
| UGUCCGUGCG | 0.222 | 0.0869 / 0.162 / 0.0553 | 0.0276 / 0 / 0 | 0 / 0 / 0 |
| UGUCCGUGGG | 0.183 | 0.0869 / 0.0719 / 0.0922 | 0 / 0 / 0 | 0 / 0 / 0 |
| UGUCCGUGUG | 0.366 | 0.191 / 0.0359 / 0.0922 | 0 / 0 / 0 | 0 / 0.0202 / 0 |
| UGUCCGUUAG | 0.366 | 0.0695 / 0.0898 / 0.148 | 0 / 0 / 0 | 0 / 0 / 0 |
| UGUCCGUUCG | 0.235 | 0.209 / 0.0359 / 0.148 | 0.0276 / 0 / 0.0464 | 0 / 0 / 0 |
| UGUCCGUUGG | 0.209 | 0.156 / 0.0898 / 0.0738 | 0 / 0 / 0.0464 | 0 / 0 / 0 |
| UGUCCGUUUG | 0.431 | 0.139 / 0.144 / 0.0369 | 0 / 0 / 0.0232 | 0 / 0 / 0 |
| UGUGCGAAAG | 0.301 | 0.156 / 0.108 / 0.0922 | 0 / 0 / 0.0232 | 0 / 0 / 0 |
| UGUGCGAACG | 0.248 | 0.0521 / 0.108 / 0.0553 | 0.0276 / 0 / 0.0464 | 0 / 0 / 0 |
| UGUGCGAAGG | 0.118 | 0.139 / 0.0898 / 0.0369 | 0 / 0 / 0.0232 | 0 / 0 / 0 |
| UGUGCGAAUG | 0.301 | 0.122 / 0.126 / 0.166 | 0.0552 / 0 / 0.0232 | 0 / 0 / 0 |
| UGUGCGACAG | 0.222 | 0.104 / 0.0539 / 0.129 | 0.0276 / 0 / 0.0232 | 0 / 0 / 0 |
| UGUGCGACCG | 0.209 | 0.0521 / 0.0898 / 0.0738 | 0 / 0 / 0 | 0 / 0 / 0 |
| UGUGCGACGG | 0.222 | 0.139 / 0.108 / 0.0922 | 0.0276 / 0 / 0 | 0 / 0 / 0 |
| UGUGCGACUG | 0.261 | 0.0869 / 0.108 / 0.129 | 0.0276 / 0 / 0.0232 | 0 / 0 / 0 |
| UGUGCGAGAG | 0.248 | 0.0521 / 0.0359 / 0.0553 | 0 / 0 / 0.0232 | 0.0180 / 0 / 0 |
| UGUGCGAGCG | 0.261 | 0.0869 / 0.126 / 0.166 | 0 / 0 / 0 | 0 / 0 / 0 |
| UGUGCGAGGG | 0.131 | 0.0348 / 0.108 / 0.111 | 0 / 0 / 0 | 0 / 0 / 0 |
| UGUGCGAGUG | 0.340 | 0.139 / 0.0180 / 0.0922 | 0 / 0 / 0 | 0 / 0 / 0 |
| UGUGCGAUAG | 0.418 | 0.139 / 0.0719 / 0.0553 | 0 / 0 / 0.139 | 0 / 0 / 0 |
| UGUGCGAUCG | 0.327 | 0.104 / 0.0719 / 0.0553 | 0 / 0 / 0 | 0 / 0 / 0 |
| UGUGCGAUGG | 0.275 | 0.0521 / 0.162 / 0.0738 | 0 / 0 / 0 | 0 / 0 / 0 |
| UGUGCGAUUG | 0.431 | 0.0348 / 0.162 / 0.0553 | 0 / 0 / 0 | 0 / 0 / 0 |
| UGUGCGCAAG | 0.105 | 0.174 / 0.198 / 0.0369 | 0 / 0 / 0.0464 | 0 / 0 / 0 |
| UGUGCGCACG | 0.170 | 0.104 / 0.0719 / 0.0738 | 0 / 0 / 0.0232 | 0 / 0 / 0 |
| UGUGCGCAGG | 0.170 | 0.191 / 0.0898 / 0.129 | 0 / 0 / 0 | 0 / 0 / 0 |
| UGUGCGCAUG | 0.131 | 0.139 / 0.0898 / 0.0553 | 0 / 0 / 0.0232 | 0 / 0 / 0 |
| UGUGCGCCAG | 0.131 | 0.139 / 0.0539 / 0.0553 | 0 / 0 / 0.0232 | 0 / 0 / 0 |
| UGUGCGCCCG | 0.248 | 0.104 / 0.0359 / 0.0738 | 0 / 0 / 0 | 0 / 0 / 0 |
| UGUGCGCCGG | 0.144 | 0.0695 / 0.144 / 0.111 | 0 / 0 / 0 | 0 / 0 / 0 |
| UGUGCGCCUG | 0.353 | 0.0695 / 0.126 / 0.0922 | 0.0276 / 0 / 0.0232 | 0 / 0 / 0 |
| UGUGCGCGAG | 0.366 | 0.243 / 0.269 / 0.332 | 0.248 / 0.0504 / 0 | 0.0180 / 0.0202 / 0.226 |
| UGUGCGCGCG | 0.275 | 0.122 / 0.0719 / 0.0369 | 0 / 0 / 0.0464 | 0 / 0 / 0 |
| UGUGCGCGGG | 0.288 | 0.0695 / 0.144 / 0.0738 | 0 / 0 / 0 | 0 / 0 / 0 |
| UGUGCGCGUG | 0.144 | 0.209 / 0.126 / 0.0553 | 0 / 0 / 0 | 0 / 0 / 0.0205 |
| UGUGCGCUAG | 0.170 | 0.156 / 0.0719 / 0.0369 | 0 / 0 / 0.0464 | 0 / 0 / 0 |
| UGUGCGCUCG | 0.222 | 0.156 / 0.0898 / 0.0369 | 0 / 0 / 0 | 0 / 0 / 0 |
| UGUGCGCUGG | 0.235 | 0.104 / 0.0719 / 0.0922 | 0 / 0 / 0 | 0 / 0 / 0 |
| UGUGCGCUUG | 0.366 | 0.0521 / 0.162 / 0.0369 | 0.0828 / 0 / 0 | 0 / 0 / 0 |
| UGUGCGGAAG | 0.118 | 0.104 / 0.0180 / 0.0553 | 0.0276 / 0 / 0 | 0 / 0.101 / 0 |
| UGUGCGGACG | 0.327 | 0.122 / 0.0180 / 0.166 | 0 / 0 / 0 | 0 / 0 / 0 |
| UGUGCGGAGA | 0.0131 | 0 / 0.0180 / 0 | 0 / 0 / 0 | 0 / 0 / 0 |
| UGUGCGGAGG | 0.144 | 0.104 / 0.0898 / 0.129 | 0 / 0 / 0.0232 | 0 / 0 / 0 |
| UGUGCGGAGU | 0.0131 | 0 / 0 / 0 | 0 / 0 / 0 | 0 / 0 / 0 |
| UGUGCGGAUG | 0.314 | 0.0695 / 0.0539 / 0 | 0.0276 / 0 / 0.0464 | 0 / 0 / 0 |
| UGUGCGGCAG | 0.209 | 0.0348 / 0.0359 / 0.0738 | 0 / 0 / 0.0232 | 0 / 0.0404 / 0 |
| UGUGCGGCCG | 0.209 | 0.174 / 0.162 / 0.0369 | 0.0276 / 0 / 0.0464 | 0 / 0 / 0 |
| UGUGCGGCGG | 0.275 | 0.139 / 0.108 / 0.0738 | 0 / 0 / 0 | 0 / 0 / 0 |
| UGUGCGGCUG | 0.196 | 0.104 / 0.0359 / 0.129 | 0 / 0 / 0 | 0 / 0 / 0 |
| UGUGCGGGAG | 0.157 | 0.782 / 0.701 / 0.424 | 0.110 / 0.227 / 0.0464 | 0.0180 / 0.0606 / 0.0820 |
| UGUGCGGGCG | 0.196 | 0.0348 / 0.126 / 0.0369 | 0 / 0 / 0 | 0 / 0 / 0 |
| UGUGCGGGGG | 0.0784 | 0.0869 / 0.0898 / 0.0369 | 0 / 0 / 0 | 0 / 0 / 0 |
| UGUGCGGGUG | 0.183 | 0.122 / 0.0359 / 0.129 | 0 / 0 / 0 | 0 / 0 / 0 |
| UGUGCGGGUU | 0.0131 | 0 / 0 / 0 | 0 / 0 / 0 | 0 / 0 / 0 |
| UGUGCGGUAG | 0.379 | 0.122 / 0.108 / 0.0738 | 0 / 0 / 0 | 0 / 0 / 0 |
| UGUGCGGUCG | 0.288 | 0.156 / 0.126 / 0.0553 | 0 / 0 / 0 | 0 / 0 / 0 |
| UGUGCGGUGG | 0.288 | 0.0869 / 0.108 / 0.129 | 0.0276 / 0 / 0.0232 | 0 / 0 / 0 |

Extract of 5 entries:

{"sequence": "UGUGCGGUGG", "pool": "0.288", "IR": "0.0869 / 0.108 / 0.129", "LM": "0.0276 / 0 / 0.0232", "Sys": "0 / 0 / 0"}
{"sequence": "UGUGCGGGAG", "pool": "0.157", "IR": "0.782 / 0.701 / 0.424", "LM": "0.110 / 0.227 / 0.0464", "Sys": "0.0180 / 0.0606 / 0.0820"}
{"sequence": "UGUGCGGCAG", "pool": "0.209", "IR": "0.0348 / 0.0359 / 0.0738", "LM": "0 / 0 / 0.0232", "Sys": "0 / 0.0404 / 0"}
{"sequence": "UGUGCGGGGG", "pool": "0.0784", "IR": "0.0869 / 0.0898 / 0.0369", "LM": "0 / 0 / 0", "Sys": "0 / 0 / 0"}
{"sequence": "UGUGCGCGAG", "pool": "0.366", "IR": "0.243 / 0.269 / 0.332", "LM": "0.248 / 0.0504 / 0", "Sys": "0.0180 / 0.0202 / 0.226"}

With 36,220-57,551 reads a sample, very low values are single reads. The authors trace changes outside the varied positions to PCR and sequencing errors or to mutation in the plant; presence does not show that a variant is infectious alone.